Where a name gives a salt, the structure may show the parent alone.
What was measured:
[1] = tested on: Mycobacterium tuberculosis H37RV; test: MIC in GAST/Fe and 7H9/ADC/Tw growth medium at 1 and 2 weeks; format: cell-based; conditions: minimal lethal dose / MIC
[2] = tested on: Bacillus cereus (ATCC11778); format: cell-based; conditions: B. cereus; minimal lethal dose / MIC; 800 μg/mL used when no cytotoxicity at 400 μg/mL
[3] = M. tuberculosis (2 weeks in 7H9/ADC/Tw)
[4] = M. tuberculosis (2 weeks in GAST/Fe)

Row | Structure (SMILES) | RTI (Relative Therapeutic Index) [1, 3] | RTI (Relative Therapeutic Index) [1, 4] | RTI (Relative Therapeutic Index) [2]
1 | CC(C)=CCC[C@H](C)CC(=O)NC1C(OC2OC(C[C@@H](O)[C@H]3O[C@@H](n4ccc(=O)[nH]c4=O)[C@H](O)[C@@H]3O)C(O)C(O)[C@H]2NC(=O)C[C@@H](C)CCC=C(C)C)OC(CO)[C@@H](O)C1O (stereo partly drawn) [Compound E1, Di-N-citronoyl-tunicamycin] | 36 | 71 | 8
2 | CCCCCCC(=O)NC1C(OC2OC(C[C@@H](O)[C@H]3O[C@@H](n4ccc(=O)[nH]c4=O)[C@H](O)[C@@H]3O)C(O)C(O)[C@H]2NC(=O)CCCCCC)OC(CO)[C@@H](O)C1O (stereo partly drawn) [Compound E2, Di-N-heptanoyl tunicamycin] | 107 | 286 | 8
3 | CCCCCCCC(=O)NC1C(OC2OC(C[C@@H](O)[C@H]3O[C@@H](n4ccc(=O)[nH]c4=O)[C@H](O)[C@@H]3O)C(O)C(O)[C@H]2NC(=O)CCCCCCC)OC(CO)[C@@H](O)C1O (stereo partly drawn) [Compound E3, Di-N-octanoyl-tunicamycin] | 571 | 2286 | 128
4 | CCCCCCCCC(=O)NC1C(OC2OC(C[C@@H](O)[C@H]3O[C@@H](n4ccc(=O)[nH]c4=O)[C@H](O)[C@@H]3O)C(O)C(O)[C@H]2NC(=O)CCCCCCCC)OC(CO)[C@@H](O)C1O (stereo partly drawn) [Compound E4, Di-N-nonanoyl-tunicamycin] | 2286 | 20000 | 1026
5 | CCCCCCCCCC(=O)NC1C(OC2OC(C[C@@H](O)[C@H]3O[C@@H](n4ccc(=O)[nH]c4=O)[C@H](O)[C@@H]3O)C(O)C(O)[C@H]2NC(=O)CCCCCCCCC)OC(CO)[C@@H](O)C1O (stereo partly drawn) [Compound E5, Di-N-decanoyl-tunicamycin] | 571 | 2286 | 2051
6 | CCCCCCCCCCC(=O)NC1C(OC2OC(C[C@@H](O)[C@H]3O[C@@H](n4ccc(=O)[nH]c4=O)[C@H](O)[C@@H]3O)C(O)C(O)[C@H]2NC(=O)CCCCCCCCCC)OC(CO)[C@@H](O)C1O (stereo partly drawn) [Compound E6, Di-N-undecanoyl-tunicamycin] | 143 | 286 | 1026
7 | CCCCCCCCCCCC(=O)NC1C(OC2OC(C[C@@H](O)[C@H]3O[C@@H](n4ccc(=O)[nH]c4=O)[C@H](O)[C@@H]3O)C(O)C(O)[C@H]2NC(=O)CCCCCCCCCCC)OC(CO)[C@@H](O)C1O (stereo partly drawn) [Compound E7, Di-N-dodecanoyl-tunicamycin] | 27 | 71 | 16
8 | NC1C(O)[C@H](O)C(CO)O[C@@H]1OC1O[C@H](C[C@@H](O)[C@@H]2O[C@@H](n3ccc(=O)[nH]c3=O)[C@H](O)[C@@H]2O)C(O)C(O)[C@H]1N (stereo partly drawn) [D, α-D-glucosamine-(1″-11′)-tunicamyl Uracil Dihydrochloride] | 13 | 13 | 8
